Pooled drug test results. Numbers come from NIAID ChemDB, via PubChem.

Shared fields: growth or infection tests; agent: Candida albicans

a–b is a range or a potency band. A number after MIC or MFC names an inhibition level or a share of isolates. An empty or dashed field is not shown. ECn is the concentration giving n% inhibition of infection, replication or growth. Neighbouring rows are from separate reports.

compound	measure	read by	strain	conditions	result
CCN1C[C@]2(COC)CC[C@H](OC)[C@]34C5CC6[C@H](OC)C5[C@](O)(C[C@@H]6OC)[C@@](O)(C13)[C@@H](OC)[C@H]24	MIC				4 µg/mL
Cc1ccc(Oc2nc3ccccc3cc2C2C(C#N)=C(N)Oc3c2c(=O)oc2ccc(C)cc32)cc1	MIC		MTCC 227		500 µg/mL
C=C1OC(=O)c2c(OC)cc(OC)c(C)c2OC1=C	MIC	broth dilution / absorbance	NCPF3153		>128 µg/mL
O=[N+]([O-])c1cc(C[Se]c2nnnn2Cc2ccccc2)cc([N+](=O)[O-])c1	EC80	broth dilution	ATCC 44859	48 h	>500 µM
Clc1ccc(COC(Cn2ccnc2)c2ccc(Cl)cc2Cl)cc1	MIC90		106 isolates		16 µg/mL
C[C@H]1C=C[C@@H](C23CC4CC(CC(C4)C2)C3)OO1	EC50				31–63 µM
CC1=CC(=O)c2c(ccc(C3=C(C)C(=O)c4cccc(O)c4C3=O)c2O)C1=O	MFC				>1000 µg/mL
CC1(C)C=C2C3CCC4[C@@]5(C)CCC(=O)C(C)(C)C5CC[C@@]4(C)[C@]3(C)CC[C@@]2(C(=O)O)CC1	MLC	broth dilution	ATCC 10231		>200 µg/mL
C[C@H]1OO[C@@H](CC(=O)OC2C3CC4CC(C3)CC2C4)[C@H]2O[C@H]21	EC50				125–250 µM
CC(=O)CCNC(=S)Nc1ccccc1	MIC		ATCC2094		>128 µg/mL
CC1CCN(CCCCCCSc2ccc(/C=C/C(=O)c3ccccc3)cc2)CC1	MIC		PCM 1409 PZH		<237 µM
COc1ccccc1CN=C=S	MIC	broth dilution			150 µg/mL
Cc1ccc(Oc2nc3ccccc3cc2C2C(C#N)=C(N)Oc3c2c(=O)oc2ccccc32)cc1	MIC		MTCC 227		500 µg/mL
CC12C(=O)c3cccc(O)c3C(=O)C1CC1=C2C(=O)c2c(O)cccc2C1=O	MIC50				3 µg/mL
OC(Cn1cncn1)(Cn1cncn1)c1ccc(F)cc1F	MIC	broth dilution	YL 349		>512 µg/mL
CCC(C)CC(C)CCCCCCCCC(=O)N[C@H]1C[C@@H](O)[C@H](NCCN)NC(=O)[C@@H]2[C@@H](O)CCN2C(=O)[C@H]([C@H](O)CCN)NC(=O)[C@H]([C@H](O)[C@@H](O)c2ccc(O)cc2)NC(=O)[C@@H]2C[C@@H](O)CN2C(=O)[C@H]([C@@H](C)O)NC1=O	MIC	resazurin	SC5314		0.5 µg/mL
Cc1ccc2nc(Oc3ccccc3)c(C3C(C#N)=C(N)Oc4c3c(=O)oc3ccc(C)cc43)cc2c1	MIC		MTCC 227		>1000 µg/mL
CCCC(=O)Nc1c2sscc-2n(C)c1=O	MIC		IPA200		20 µg/mL
C[C@H]1OO[C@@H](CC(=O)OCC2C3CC4CC(C3)CC2C4)[C@H]2O[C@H]21	EC50				250–500 µM
CCC(C)CC(C)CCCCCCCCC(=O)NC1C[C@@H](O)[C@@H](O)NC(=O)[C@@H]2[C@@H](O)CCN2C(=O)[C@H]([C@@H](O)CC(N)=O)NC(=O)[C@H]([C@H](O)[C@@H](O)c2ccc(OP(=O)([O-])O)cc2)NC(=O)[C@@H]2C[C@@H](O)CN2C(=O)[C@H]([C@H](C)O)NC1=O.[Na+]	MFC		MY1028		4 µg/mL
CO[C@@H]1[C@@H](O)[C@H](O[C@@H]2[C@@H](O)[C@H](O[C@H]3[C@H](O)[C@@H](O)[C@H](O[C@H]4[C@H](O[C@H]5CC[C@]6(C)C7=C[C@H](O)[C@]89C(=O)O[C@@](C)(CCCC(C)C)[C@H]8CC[C@@]9(C)[C@@H]7CC[C@H]6C5(C)C)OC[C@@H](O[C@@H]5O[C@H](CO)[C@@H](O)[C@H](O[C@@H]6O[C@H](CO)[C@@H](O)[C@H](OC)[C@H]6O)[C@H]5O)[C@@H]4O)O[C@@H]3C)O[C@H](CO)[C@H]2O)O[C@H](CO)[C@H]1O	MIC80		ATCC 76615		2.8 µM
COc1ccc(NC(=S)NCCCC(=O)C(C)C)cc1	MIC		ATCC2094		20 µg/mL
C[C@@H](c1ncncc1F)[C@](O)(Cn1cncn1)c1ccc(F)cc1F	MIC50		85 strains (fluconazole-resistant)		1 µg/mL
C[C@@H](c1ncncc1F)[C@](O)(Cn1cncn1)c1ccc(F)cc1F	MIC80		ATCC 76615		0.01 µM
COc1ccc2nc(Oc3ccc(C)cc3)c(C3C(C#N)=C(N)Oc4c3c(=O)oc3ccc(C)cc43)cc2c1	MIC		MTCC 227		200 µg/mL
O=[N+]([O-])c1cc(CSc2nnnn2-c2ccc(Cl)c(Cl)c2)cc([N+](=O)[O-])c1	EC80	broth dilution	ATCC 44859	24 h	>125 µM
CN[C@@H]1[C@H](O[C@H]2[C@H](O[C@H]3[C@H](O)[C@@H](O)[C@H](N=C(N)N)[C@@H](O)[C@@H]3N=C(N)N)O[C@@H](C)[C@]2(O)C=O)O[C@@H](CO)[C@H](O)[C@H]1O	MIC	visual reading	ATCC 10231		250 µg/mL
CCN1C[C@]2(COC)CC[C@H](O)[C@]34C1[C@@](O)([C@@H](OC)[C@H]23)[C@@]1(O)C[C@H](OC)C2C[C@@H]4[C@@H]1[C@H]2O	MIC				4 µg/mL
Clc1ccc(C(Cn2ccnc2)OCc2ccc(Sc3ccccc3)cc2)c(Cl)c1	MIC50		106 isolates		8 µg/mL
CC(C)C(=O)CCCNC(=S)Nc1ccccc1	MIC		ATCC2094		>128 µg/mL
O=C(/C=C/c1ccccc1)c1cccc(N(CCO)CCO)c1	MIC	broth dilution	ATCC 10231		32 µg/mL
C[C@@H]1O[C@@H](Oc2c(-c3ccc(O)c(O)c3)oc3cc(O)cc(O)c3c2=O)[C@H](O)[C@H](O)[C@H]1O	MIC	broth dilution	ATCC 10231		100 µg/mL
CCC(C)n1ncn(-c2ccc(N3CCN(c4ccc(OC[C@H]5CO[C@](Cn6cncn6)(c6ccc(Cl)cc6Cl)O5)cc4)CC3)cc2)c1=O	MIC		Isogenic isolate 17 CDR		0.25 µg/mL
O=[N+]([O-])c1cc(CSc2cccc[n+]2[O-])cc([N+](=O)[O-])c1	EC80	broth dilution	ATCC 44859	48 h	>500 µM
Cc1ccc2nc(Oc3ccccc3)c(C3C(C#N)=C(N)Oc4c3c(=O)oc3ccccc43)cc2c1	MIC		MTCC 227		500 µg/mL
C=C(C)CCC[C@]1(C)OC(=O)[C@]23[C@@H](O)C=C4[C@@H](CC[C@H]5C(C)(C)[C@@H](O[C@@H]6OC[C@@H](O[C@@H]7O[C@H](CO)[C@@H](O)[C@H](O[C@@H]8O[C@H](CO)[C@@H](O)[C@H](OC)[C@H]8O)[C@H]7O)[C@H](O)[C@H]6O[C@@H]6O[C@H](C)[C@@H](O[C@@H]7O[C@H](CO)[C@@H](O)[C@H](O[C@@H]8O[C@H](CO)[C@@H](O)[C@H](OC)[C@H]8O)[C@H]7O)[C@H](O)[C@H]6O)CC[C@]45C)[C@]2(C)CC[C@@H]31	MIC80		ATCC 76615		2.81 µM
C=C(c1ccccc1OCc1cccc(Cl)c1)n1ccnc1	MIC50		106 isolates		1 µg/mL
C[C@@H](c1nc(-c2ccc(C#N)cc2)cs1)[C@](O)(Cn1cncn1)c1ccc(F)cc1F	MIC90		4054 strains (fluconazole-susceptible)		0.015 µg/mL
C[C@@H]1C=CC(CC(=O)OCC2C3CC4CC(C3)CC2C4)OO1	EC50				125–250 µM
COC(=O)c1cc(O)c(O)c(O)c1	MLC	broth dilution	ATCC 10231		>200 µg/mL
C1C2CC3CC1CC(C2)C3[C@H]1OOC[C@@H]2O[C@@H]21	EC50				31–63 µM
N#CCc1ccccc1	MIC	broth dilution			600 µg/mL
COc1ccc(NC(=S)NCCC(=O)OC(C)C)cc1OC	MIC		ATCC2094		98 µg/mL
N#CSCc1ccccc1	MIC	broth dilution			1250 µg/mL
CCCCCCCCOc1ccc(-c2ccc(C(=O)NC3CC(NCCN)CNC(=O)[C@@H]4[C@@H](O)[C@@H](C)CN4C(=O)[C@@H](CO)NC(=O)[C@H]([C@H](O)Cc4ccccc4)NC(=O)[C@@H]4C[C@@H](O)CN4C(=O)[C@H]([C@@H](C)O)NC3=O)cc2)cc1	MIC	resazurin	SC5314		0.5 µg/mL
C[C@@H]1[C@H](O)[C@@H](C)/C=C/C=C/CC/C=C/C=C/C=C/C=C/C(O[C@H]2O[C@H](C)[C@@H](O)[C@H](N)[C@@H]2O)CC2O[C@](O)(CC(O)C(O)CCC(O)CC(O)CC(O)CC(=O)O[C@H]1C)CC(O)C2C(=O)O	MFC	broth dilution			25 µg/mL
O=[N+]([O-])c1cc(CSc2nnnn2Cc2ccccc2)cc([N+](=O)[O-])c1	EC80	broth dilution	ATCC 44859	24 h	>500 µM
C=C1OC(=O)c2c(OC)cc(OC)c(C)c21	MIC	broth dilution / absorbance	NCPF3153		>128 µg/mL
CO[C@@H]1[C@@H](O)[C@H](O[C@@H]2[C@@H](O)[C@H](O[C@H]3[C@H](O)[C@@H](O)[C@H](O[C@H]4[C@H](O[C@H]5CC[C@]6(C)C7=C[C@H](O)[C@]89C(=O)O[C@@](C)(CCC=C(C)C)[C@H]8CC[C@@]9(C)[C@@H]7CC[C@H]6C5(C)C)OC[C@@H](O[C@@H]5O[C@H](CO)[C@@H](O)[C@H](O[C@@H]6O[C@H](CO)[C@@H](O)[C@H](OC)[C@H]6O)[C@H]5O)[C@@H]4O)O[C@@H]3C)O[C@H](CO)[C@H]2O)O[C@H](CO)[C@H]1O	MIC80		ATCC 76615		2.81 µM
O=C(/C=C/c1ccccc1F)c1cccc(N(CCO)CCO)c1	MIC	broth dilution	ATCC 10231		32 µg/mL
O=C(O)c1cccc(-n2nnnc2SCc2cc([N+](=O)[O-])cc([N+](=O)[O-])c2)c1	EC80	broth dilution	ATCC 44859	24 h	>500 µM
O=C(/C=C/c1ccc(Cl)cc1Cl)c1cccc(N(CCO)CCO)c1	MIC	broth dilution	ATCC 10231		128 µg/mL
Oc1cc(Cc2cc(O)c(O)c(Br)c2Br)c(Br)c(Br)c1O	EC50		ATCC 10231		25 µg/mL
CC1(C)C=C2C3CCC4[C@@]5(C)CCC(O)C(C)(C)C5CC[C@@]4(C)[C@]3(C)CC[C@@]2(C(=O)O)CC1	MIC	broth dilution	ATCC 10231		>200 µg/mL
CN(C/C=C/C#CC(C)(C)C)Cc1cccc2ccccc12	MIC80		ATCC 76615		12.23 µM
CC(C)c1cc2c(cc1O)[C@@]1(C)CCCC(C)(C)C1=C(O)C2=O	MIC				>250 µg/mL
CC(C)C(=O)Nc1c2sscc-2n(C)c1=O	MIC		IPA200		30 µg/mL
CC1CCN(CCCCCSc2ccc(/C=C/C(=O)c3ccccc3)cc2)CC1	MIC		PCM 1409 PZH		184 µM
COc1cc(C=O)cc(OC)c1OC	MIC99.9	broth dilution	ATCC 90028		4000 µg/mL
Cc1ccc(Oc2nc3ccc(C)cc3cc2C2C(C#N)=C(N)Oc3c2c(=O)oc2ccccc32)cc1	MIC		MTCC 227		500 µg/mL
Clc1ccc(CCC(Cn2ccnc2)Sc2c(Cl)cccc2Cl)cc1	MIC90		106 isolates		8 µg/mL